Pooled drug test results. Numbers come from NIAID ChemDB, via PubChem.

Common to all: cytotoxicity tests; cells: E6SM; measure: CC50

CCn is the concentration with n% toxicity to the cells. An empty or dashed field is not shown. Conditions beyond the fields shown may differ between rows.

smiles,method,result
O=c1[nH]cnc2c1ncn2C1C[C@H](CO)[C@@H](CO)C1,,>200 µg/mL
CCC(Sc1ncnc2c1cnn2COCC(O)CO)C(N)=O,,>400 µg/mL
O=c1[nH]c(=O)n(C2C[C@H](CO)[C@@H](CO)C2)cc1I,,>200 µg/mL
CC1(C)[C@@H](CO)CC[C@@]1(C)Cn1ccc(=O)[nH]c1=O,,>400 µg/mL
CC(C)Nc1ncnc2c1ncn2C1C[C@H](CO)[C@@H](CO)C1,,>200 µg/mL
OC[C@H]1O[C@@H](c2cc(I)c(F)cc2F)C[C@@H]1O,MTT,610 µg/mL
CC(C)CS[C@H]1C[C@@H](n2cnc3c(N)ncnc32)[C@H](O)[C@@H]1O,,≥400 µg/mL
C=Cc1cn([C@@H]2CO[C@H](CO)[C@@H](O)C2)c(=O)[nH]c1=O,,>400 µg/mL
CC1(C)[C@@H](CO)CC[C@@]1(C)Cn1cnc2c(=O)[nH]cnc21,,>400 µg/mL
CCC(Sc1ncnc2c1cnn2CCCCO)C(N)=O,,>400 µg/mL
O=c1[nH]c(=O)n([C@@H]2CO[C@H](CO)[C@@H](O)C2)cc1I,,>400 µg/mL
CC1(C)[C@@H](CO)CC[C@@]1(C)Cn1nnc2c(N)ncnc21,,>400 µg/mL
CC(Sc1ncnc2c1cnn2COCC(O)CO)C(N)=O,,>400 µg/mL
C#Cc1cn([C@@H]2CO[C@H](CO)[C@@H](O)C2)c(=O)[nH]c1=O,,>400 µg/mL

Repeating the final 2 entries:

smiles	method	result
CC(Sc1ncnc2c1cnn2COCC(O)CO)C(N)=O		>400 µg/mL
C#Cc1cn([C@@H]2CO[C@H](CO)[C@@H](O)C2)c(=O)[nH]c1=O		>400 µg/mL